Values from PubChem BioAssay AID624099 (ICCB-Longwood, 2012)

- Screen: 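Host factors E2 relies on to silence an HPV18 LCR reporter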 (primary screen)
- System: human C33A cervical carcinoma cells (HPV-negative) stably expressing BPV1 E2 and an HPV18 LCR luciferase reporter
- Knock-down reagent: siRNA pool against human genes, 40 nM
- Duration: 72 h
- Detection: 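Per-well luciferase luminescence, z-scored on each plate against the plate mean and SD with control wells left out, then averaged across three replicate plates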
- Scale: mean z-score and z-score: higher = stronger reporter signal, weaker E2 silencing
- Rule for the call: 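Mean z ≥ 2 together with z ≥ 2 in two or more of the three replicates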
The deposit covers about 21,000 reagents; shown is an unselected part. 497 of all reagents (2.4%) were called active. 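Higher z means weaker E2 silencing; only reporter increases were scored, and knock-downs that hurt cell survival may mask genuine repressor factors.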 A number with no mark means an inactive call.

gene symbol,mean z-score,"z-score, replicate A","z-score, replicate B","z-score, replicate C"
CUTA (GeneID 51596),1.17,1.18,1.17,1.15
TRIM27 (GeneID 5987),-0.75,-0.83,-0.67,-0.76
ARL8B (GeneID 55207),1.9,2.2,2.21,1.31
ASPG (GeneID 374569),-0.26,-0.44,-0.15,-0.19
GJB6 (GeneID 10804),-0.68,-1.03,-0.81,-0.19
APBB3 (GeneID 10307),0.36,0.23,0.37,0.5
POTEB3 (GeneID 102724631),0.49,0.27,0.35,0.83
AP3S1 (GeneID 1176),0.19,-0.13,0.24,0.47
CR1L (GeneID 1379),-0.24,-0.09,-0.36,-0.25
TRIM51 (GeneID 84767),-1.2,-1.25,-1.03,-1.32
SDS (GeneID 10993),-0.48,-0.41,-0.47,-0.57
FCGR1A (GeneID 2209),-1.03,-1.04,-1.01,-1.06
SLC5A11 (GeneID 115584),-0.47,-0.41,-0.59,-0.41
RPS6KA5 (GeneID 9252),1.86,1.89,1.83,1.87
LOC389950 (retired record) (GeneID 389950),-0.7,-0.37,-0.78,-0.96
EEF1B2 (GeneID 1933),-0.44,-0.44,-0.49,-0.4
POLR3G (GeneID 10622),0.32,0.39,0.27,0.28
UTS2B (GeneID 257313),-0.11,-0.42,-0.07,0.17
SPRYD4 (GeneID 283377),0.26,-0.02,0.8,0
LOC400572 (retired record) (GeneID 400572),0.1,0.1,0.27,-0.05
OXT (GeneID 5020),0.85,0.92,0.61,1.02
UBR3 (GeneID 130507),0.8,0.79,0.59,1.01
PGK2 (GeneID 5232),0.03,0.07,-0.31,0.33
LOC401589 (GeneID 401589),0.55,0.82,0.94,-0.1
YBEY (GeneID 54059),-0.31,-0.08,-0.28,-0.56
PDE9A (GeneID 5152),0.74,0.75,0.74,0.74
FAAH (GeneID 2166),1.36,1.45,1.18,1.44
MACROH2A1 (GeneID 9555),1.25,1.09,0.98,1.68
USP20 (GeneID 10868),-1.43,-1.28,-1.51,-1.5
HS3ST1 (GeneID 9957),0.54,0.75,0.31,0.56
COTL1 (GeneID 23406),0.66,0.45,0.89,0.62
KCNMA1 (GeneID 3778),0.18,0.36,-0.07,0.26
SEZ6 (GeneID 124925),-1.21,-1.39,-1.27,-0.98
GJD4 (GeneID 219770),1.17,0.87,1.3,1.34
HLA-C (GeneID 3107),-0.2,0,-0.51,-0.09
GLP2R (GeneID 9340),0.07,-0.03,0.22,0.04
DEFB126 (GeneID 81623),-0.3,0.18,-0.62,-0.45
DLAT (GeneID 1737),0.53,0.5,0.47,0.64
GTF3C4 (GeneID 9329),0.28,0.01,0.46,0.36
ART3 (GeneID 419),-0.13,0.23,-0.29,-0.33
ZNF30 (GeneID 90075),2.69 (active),2.39,3.04,2.66
PAPPA2 (GeneID 60676),-0.12,0.03,-0.01,-0.38
RASSF6 (GeneID 166824),0.93,1.31,0.87,0.61
NFKBIZ (GeneID 64332),-0.26,-0.18,-0.38,-0.24
CLIP4 (GeneID 79745),-1.17,-0.97,-1.35,-1.18
CEACAM20 (GeneID 125931),-1.63,-1.24,-1.65,-2
TBCK (GeneID 93627),-0.94,-1.07,-1.18,-0.57
KRT24 (GeneID 192666),-0.67,-0.82,-0.81,-0.38
PYGL (GeneID 5836),0.95,0.8,0.87,1.17
CCNYL1 (GeneID 151195),0.49,0.39,0.67,0.41
PIP4K2B (GeneID 8396),-0.41,-0.55,-0.37,-0.3
SVOPL (GeneID 136306),-0.37,-0.8,-0.28,-0.05
LOC440867 (retired record) (GeneID 440867),-0.26,-0.22,-0.3,-0.26
NOSTRIN (GeneID 115677),0.4,0.19,0.21,0.79
ARID3A (GeneID 1820),-0.82,-0.55,-0.92,-0.97
PROCR (GeneID 10544),2.76 (active),2.61,2.86,2.81
GPR137B (GeneID 7107),1.81,1.96,1.85,1.63

Reagents listed above marked active:
gene symbol,mean z-score,"z-score, replicate A","z-score, replicate B","z-score, replicate C"
ZNF30 (GeneID 90075),2.69 (active),2.39,3.04,2.66
PROCR (GeneID 10544),2.76 (active),2.61,2.86,2.81
